The structures appear in SMILES notation. Only a part is listed here, and it is no random draw. Activity calls are given as the source filed them.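 How the source made its calls: active means significant combined selectivity score with lowered wild-type GFP, culture density cut under 30%, mutant RFP and density less affected; inactive means any of these conditions unmet.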

The values that follow come from PubChem BioAssay AID720706 (Broad Institute, 2013).

The assay can be described thus: reduced GFP signal of wild-type E. coli, primary screen, bacterial rRNA inhibitor project, GFP/RFP fluorescence, OD600, single point (AID 720706). As to conditions: E. coli WT GFP vs humanized-ribosome RFP mutants, 24 h, hits give low values, DMSO median 0, no signal -100.
In the case of `Nc1ccc([As](=O)(O)c2ccc(N)cc2)cc1`, the GFP signal change (wild-type ribosome) was inactive: 8.29%. For `C[N+]1=C2C=CC=CC=C2SC12C([N+](=O)[O-])=CC([N+](=O)[O-])=C[C-]2[N+](=O)[O-]` (stereo not drawn), the GFP signal change (wild-type ribosome) is inactive: -2.23%.

As for `c1cc(-c2nn[nH]n2)ccc1-c1nn[nH]n1`, the GFP signal change (wild-type ribosome) was inactive: -0.215%. As for `CC(C)c1nc(Nc2ccccc2)n(P(=O)(N(C)C)N(C)C)n1`, the GFP signal change (wild-type ribosome) was inactive: 6.87%. As for `CN(C)C(=O)c1c([N+](=O)[O-])cc([N+](=O)[O-])cc1[N+](=O)[O-]`, the GFP signal change (wild-type ribosome) is inactive: 10.5%. With `CC(C)=N/N=C(\N)N[N+](=O)[O-]`, the GFP signal change (wild-type ribosome) is inactive: 6.53%. The figure for `COc1ccc(C2=NCC(CBr)S2)cc1` (stereo not drawn) is inactive: -0.775%; for `Cc1ccc(NP(=O)(Oc2ccccc2)Oc2ccccc2)nc1` it is inactive: 8.39%. `CCc1ccc(OP(C)(=O)Nc2cccnc2)cc1` (stereo not drawn): the GFP signal change (wild-type ribosome) was inactive: 1.31%. In the case of `O=[N+]([O-])c1cc([N+](=O)[O-])c(CCNc2ccccc2)c([N+](=O)[O-])c1`, the GFP signal change (wild-type ribosome) was inactive: -10.3%. With `O=C(OCCCN1CCCC1)C(O)(c1ccccc1)C1CCCCC1` (stereo not drawn), the GFP signal change (wild-type ribosome) is inactive: 11.4%. As to `O=C(NC(Sc1ccncn1)C(Cl)(Cl)Cl)c1ccccc1` (stereo not drawn), the GFP signal change (wild-type ribosome) is inactive: 6.41%. For the compound `Nc1cc(N)c2nonc2c1[N+](=O)[O-]`, the GFP signal change (wild-type ribosome) was inactive: 8.05%. Regarding `CC(C)CC(=O)NC(Sc1ccc(Cl)cc1)C(Cl)(Cl)Cl` (stereo not drawn), the GFP signal change (wild-type ribosome) is inactive: -14.7%. With `O=[N+]([O-])c1cc([N+](=O)[O-])c(Nc2ccccn2)c([N+](=O)[O-])c1`, the GFP signal change (wild-type ribosome) was active: -31.8%. Regarding `CN(C(=O)Cc1ccc(Cl)c(Cl)c1)[C@H]1CCCC[C@H]1N1CCCC1`, the GFP signal change (wild-type ribosome) is inactive: 9.57%. On to `COc1ccccc1OP(C)(=O)Nc1ccc(Br)cc1` (stereo not drawn), for which the GFP signal change (wild-type ribosome) was inactive: 3.85%. On to `NC(=O)c1cc([N+](=O)[O-])cc([N+](=O)[O-])c1N`, for which the GFP signal change (wild-type ribosome) was inactive: 7.04%. Regarding `Clc1ccc(Cl)c(NC2=NCC(CBr)S2)c1` (stereo not drawn), the GFP signal change (wild-type ribosome) is inactive: -22.6%. Consider `COc1ccccc1OP(=O)(Nc1ccc(C)cn1)Oc1ccccc1OC`, for which the GFP signal change (wild-type ribosome) was inactive: 20.4%. For `Cc1ccc(OP(=O)(Nc2nccs2)Oc2ccc(C)cc2)cc1` the value was inactive: 4.36%. For the compound `Nc1cccc2ccc([As](=O)(O)O)cc12`, the GFP signal change (wild-type ribosome) is inactive: -19.9%. Consider `CCCCCCCCCCCCCCCC1C[N+](C)(C)CCOP(C)(=O)O1` (stereo not drawn), for which the GFP signal change (wild-type ribosome) was inactive: -55.1%. `CP(=O)(Nc1ccc(Cl)cc1Cl)Oc1ccccc1` (stereo not drawn): the GFP signal change (wild-type ribosome) was inactive: -13.6%. The figure for `CP(=O)(OCCOc1ccccc1)OCCOc1ccccc1` is inactive: -7.47%; for `CN(C(=O)Cc1ccccc1)C1CC[C@@]2(CCCO2)C[C@@H]1N1CCCC1` (stereo partly drawn) it is inactive: 6.69%. With `O=C1C(O)=C([N+](=O)[O-])C(=O)C(O)=C1[N+](=O)[O-]`, the GFP signal change (wild-type ribosome) was inactive: 18.4%. As for `O=P(Nc1nc2ccc(Cl)cc2s1)(c1ccccc1)c1ccccc1`, the GFP signal change (wild-type ribosome) is inactive: -48%.

As to `Cc1cc(C)cc(OP(C)(=O)Nc2cccc(C(F)(F)F)c2)c1` (stereo not drawn), the GFP signal change (wild-type ribosome) is inactive: 12.3%. For the compound `CN(C)P(=O)(N(C)C)n1c(Nc2ccccc2)nnc1-c1ccccc1`, the GFP signal change (wild-type ribosome) is inactive: -23.1%. For the compound `CC(=O)Nc1ccc([As](=O)(O)O)cc1`, the GFP signal change (wild-type ribosome) is inactive: 5.38%. The figure for `O=C(O)c1ccccc1[As](=O)(O)O` is inactive: -12.6%; for `CCCC1OP(N)(=O)OCC1CC` (stereo not drawn) it is inactive: 14.9%.

As for `CCn1c(=O)n(C2CCN(CC3CCCCCCC3)C[C@H]2CO)c2ccccc21` (stereo partly drawn), the GFP signal change (wild-type ribosome) was inactive: 2.88%. As to `Cc1ccc(NP(=O)(Oc2ccccc2F)Oc2ccccc2F)nc1`, the GFP signal change (wild-type ribosome) was inactive: 24.9%. For the compound `COC(=O)C1(C)COP(=O)(N2CCCCCC2)OC1` (stereo not drawn), the GFP signal change (wild-type ribosome) is inactive: 3.77%. Turning to `CC(C)c1ccc(OP(=O)(Nc2ccccn2)Oc2ccccc2F)cc1` (stereo not drawn), the GFP signal change (wild-type ribosome) was inactive: -5.63%. `COc1ccccc1OP(C)(=O)Nc1cc(Cl)ccc1C` (stereo not drawn): the GFP signal change (wild-type ribosome) was inactive: -18.1%. For `CC(C)NC(=O)NP(=O)(Oc1ccccc1)Oc1ccccc1` the value was inactive: 13.6%; for `O=C(OC1CN2CCC1CC2)c1cccc2[nH]cnc12` (stereo not drawn), inactive: 3.66%. Consider `Cc1cc(C)cc(OP(C)(N)=O)c1` (stereo not drawn), for which the GFP signal change (wild-type ribosome) was inactive: 12.4%. With `O=[N+]([O-])c1cc([N+](=O)[O-])c(Nc2cccnc2)c([N+](=O)[O-])c1`, the GFP signal change (wild-type ribosome) is inactive: -25%. Consider `C[As](=O)(O)c1cccc(C(=O)O)c1`, for which the GFP signal change (wild-type ribosome) is inactive: 7.12%. For `O=[As](O)(c1ccc(O)cc1)c1ccccc1O`, the GFP signal change (wild-type ribosome) is inactive: 14.6%.

As to `O=[N+]([O-])c1ccc(-c2cc([N+](=O)[O-])c(O)c([N+](=O)[O-])c2)cc1`, the GFP signal change (wild-type ribosome) is inactive: -68.9%. Consider `COc1cc(C(=O)NCC2(N3CCOCC3)CCCCC2)ccc1OCC(C)C`, for which the GFP signal change (wild-type ribosome) is inactive: -0.36%.

In the case of `[N-]=[N+]=NC1CCCCC1NC(=O)c1cc([N+](=O)[O-])cc([N+](=O)[O-])c1` (stereo not drawn), the GFP signal change (wild-type ribosome) is inactive: 6.54%. Consider `Cc1ccc(OP(=O)(Nc2ccc([N+](=O)[O-])cn2)Oc2ccc(C)cc2)cc1`, for which the GFP signal change (wild-type ribosome) is inactive: 8.22%. On to `CC(C)(C)c1ccc(OP(C)(=O)Nc2ccc(SC(F)(F)F)cc2)cc1` (stereo not drawn), for which the GFP signal change (wild-type ribosome) was inactive: 4.12%.

In the case of `Cc1cccc(C)c1OP(C)(N)=O` (stereo not drawn), the GFP signal change (wild-type ribosome) is inactive: 13.6%. On to `O=[N+]([O-])c1ccc2c(c1)C=Nc1ccccc1O2`, for which the GFP signal change (wild-type ribosome) was inactive: -30.8%. In the case of `Cc1ccc2nc3c(c(C)c2c1)CC(C(Cl)Cl)S3` (stereo not drawn), the GFP signal change (wild-type ribosome) is inactive: 3.21%. As for `COc1ccc(N/C(=N/P(=O)(N2CCOCC2)N2CCOCC2)N2CCOCC2)cc1`, the GFP signal change (wild-type ribosome) was inactive: 5.67%. As to `COc1ccccc1-c1ccccn1.O=[N+]([O-])c1cc([N+](=O)[O-])c(O)c([N+](=O)[O-])c1`, the GFP signal change (wild-type ribosome) was inactive: 0.045%. With `Cc1c2c(nc3ccccc13)SC(C(Cl)Cl)C2` (stereo not drawn), the GFP signal change (wild-type ribosome) was inactive: -54.5%. As to `Cc1cc(=O)[nH]c(N[N+](=O)[O-])n1`, the GFP signal change (wild-type ribosome) is inactive: 13.2%. For the compound `CCN(CC)CCCOC(=O)C(O)(c1ccccc1)c1ccccc1`, the GFP signal change (wild-type ribosome) was inactive: 4.29%. The figure for `O=P1(N(CCCl)CCCl)OCCCN1CCCl` (stereo not drawn) is inactive: 14.7%; for `O=P1(N(CCCl)CCCl)Nc2ccccc2N1` it is inactive: 4.09%; for `COc1ccc2nc(NP(=O)(c3ccccc3)c3ccccc3)sc2c1` it is inactive: 3.93%.

On to `COc1cc(I)ccc1[As](=O)(O)O`, for which the GFP signal change (wild-type ribosome) is inactive: 6.31%.

For the compound `O=C(OC1CN2CCC1CC2)c1cccc([N+](=O)[O-])c1` (stereo not drawn), the GFP signal change (wild-type ribosome) was inactive: 5.96%. Take `CCOC(=O)c1ccc(NC(=O)C(C)(CCl)SC)cc1` (stereo not drawn): the GFP signal change (wild-type ribosome) was inactive: -0.796%.
